In the supplement of paper PMC9931576:
Residue numbers refer to the chain shown, from its start. Human monoclonal antibodies against the spike receptor-binding domain (heavy:light variable regions). IC50 against pseudoviruses bearing the spike of naturally observed variants; lower = stronger; >10 µg/ml means not reached at the top dose. No active / inactive call. The stated detection limit is 0.0005 µg/ml; values near or below 0.001 µg/ml lie at the floor of the assay.

Assays:
Assay in all cases: pseudovirus neutralization IC50; higher = weaker neutralization
[1] = molecular target: SARS-CoV-2 Omicron BA.1 spike pseudovirus
Method: (§1)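 Single-round VSV luciferase pseudovirus mixed with antibody dilutions for 1 h and put on Huh-7 cells for about a day; IC50 from the dose curve.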

[2] = molecular target: SARS-CoV-2 Omicron BA.2 spike pseudovirus
Method: as §1

[3] = molecular target: SARS-CoV-2 Omicron BA.2.75 spike pseudovirus
Method: as §1

[4] = molecular target: SARS-CoV-2 Omicron BA.5 spike pseudovirus
Method: as §1

[5] = molecular target: SARS-CoV-2 Omicron BQ.1.1 spike pseudovirus
Method: as §1

[6] = molecular target: SARS-CoV-2 Omicron XBB spike pseudovirus
Method: as §1

[7] = molecular target: SARS-CoV-2 early D614G spike pseudovirus
Method: as §1

B1: BD56-1698 (protein)
chain 1: QVQLVQSGAEVKKPGSSVKVSCKASGGTFSSYTFSWVRQAPGQGLEWMGRIIPILGIANYAQNFQVRVTITADKSTSTAYMELSSLTSEDTAVYYCATLRGYSGYGANEFFDYWGQGTLVTVSS
chain 2: QSVLTQPPSVSGAPGQRVTISCTGSNSNIGAGYDVHWYQQLPGTAPKLLININSNRPLGVPDRFSGSKSGTSASLAIAGLQVEDEADYYCQSYDSSLSDWVFGGGTKLTVL
- pseudovirus neutralization IC50 [1]: 0.0396 µg/mL
- pseudovirus neutralization IC50 [2]: 0.0111 µg/mL
- pseudovirus neutralization IC50 [3]: 0.0262 µg/mL
- pseudovirus neutralization IC50 [4]: 1.56 µg/mL
- pseudovirus neutralization IC50 [5]: > 10 µg/mL
- pseudovirus neutralization IC50 [6]: 2.63 µg/mL
- pseudovirus neutralization IC50 [7]: 0.0411 µg/mL

B2: BD56-1699 (protein)
chain 1: QVQLVQSGAEVKKPGSSVKVSCKASGGTFSSYTISWVRQAPGQGLEWMGRIIPILDITNYAQKFQGRVTITADKSTSTAYMELSSLRSEDTAVYYCARDHPNYYDSSGLASDYFDYWGQGTLVTVSS
chain 2: QSVLTQPPSVSGAPGQRVTISCTGSSSNIGAGYDVHWYQQLPGIAPKLLIYGNNNRPSGVPDRFFGSKSGTSASLAITGLQAEDEADYYCLSYDSSLSGSVFGGGTKLTVL
- pseudovirus neutralization IC50 [1]: 0.128 µg/mL
- pseudovirus neutralization IC50 [2]: 0.146 µg/mL
- pseudovirus neutralization IC50 [3]: 0.317 µg/mL
- pseudovirus neutralization IC50 [4]: > 10 µg/mL
- pseudovirus neutralization IC50 [5]: > 10 µg/mL
- pseudovirus neutralization IC50 [6]: > 10 µg/mL
- pseudovirus neutralization IC50 [7]: 0.688 µg/mL

B3: BD56-1717 (protein)
chain 1: QVQLEQSGAEVRKPGSSVMVSCKASGGTFSNYAVSWVRQAPGQGLEWMAGIVPVFDTTYYAQKFQGRVTITADVSTNTVYINVNSLRPDDTAVYYCAGHSSSPSASYSYSYYMDVWGKGTTVTVSS
chain 2: QSALTQPASVSGSPGQSITISCTGTSSDVANYDLVSWYQQHPGKAPKLIIYDFTKRPSGVSSRFSASKSGNTASLTISGLQAEDEADYYCCAYGGSSTWVFGGGTKVTAL
- pseudovirus neutralization IC50 [1]: 0.000756 µg/mL
- pseudovirus neutralization IC50 [2]: 0.000934 µg/mL
- pseudovirus neutralization IC50 [3]: 0.000716 µg/mL
- pseudovirus neutralization IC50 [4]: 2.88 µg/mL
- pseudovirus neutralization IC50 [5]: 3.45 µg/mL
- pseudovirus neutralization IC50 [6]: > 10 µg/mL
- pseudovirus neutralization IC50 [7]: 0.0012 µg/mL

B4: BD56-1718 (protein)
chain 1: EVQLVESGGGFVQPGGSLRLSCAASEFTFSSYDMHWVRQPTGKGLEWVSTIGTAGDTYYADSVKGRFTMSRENAKNSLYLQMNTLRAGDTAVYYCARDGGHGYNYGYFDLWGRGTLVTVSS
chain 2: DIQMTQSPSSLSASVGDRVTITCRASQSIRRYLNWYQLKPGKAPNLLIFGASNLHSGVPSRFSGSGSGTDFTLTISSLQPEDFATYSCQQSYSTSYTFGQGTKLEVK
- pseudovirus neutralization IC50 [1]: > 10 µg/mL
- pseudovirus neutralization IC50 [2]: > 10 µg/mL
- pseudovirus neutralization IC50 [3]: > 10 µg/mL
- pseudovirus neutralization IC50 [4]: > 10 µg/mL
- pseudovirus neutralization IC50 [5]: > 10 µg/mL
- pseudovirus neutralization IC50 [6]: > 10 µg/mL
- pseudovirus neutralization IC50 [7]: > 10 µg/mL

B5: BD56-1720 (protein)
chain 1: EVQLVESGGGLVQPGGSLRLSCAASGFTFSSYDMHWVRQVTGKGLEWVSTIGTSGDTYYPDSVKGRFTISRENAKNSLYLQMSSLRAGDSAVYFCSRVTYDSRGYHWYLDLWGRGTRVTVSS
chain 2: DIQMTQSPSSLSASVGDRVTITCRTSQSINKYLNWYQQKPGKAPKLLIYGASFSLQSGVPSRFSGSGSGTEFTLTISNLQPEDCATYYCQQSYTNPLYTFGQGTKLEIK
- pseudovirus neutralization IC50 [1]: > 10 µg/mL
- pseudovirus neutralization IC50 [2]: > 10 µg/mL
- pseudovirus neutralization IC50 [3]: > 10 µg/mL
- pseudovirus neutralization IC50 [4]: > 10 µg/mL
- pseudovirus neutralization IC50 [5]: > 10 µg/mL
- pseudovirus neutralization IC50 [6]: > 10 µg/mL
- pseudovirus neutralization IC50 [7]: > 10 µg/mL

B6: BD56-1721 (protein)
chain 1: QVQLVQSGAEMKKPGSSVKVSCKASGGTFSSYTISWVRQAPGQGLEWMGRIIPILGVANYAQKFQGRVTITADKSTATAYLELSSLRSEDTAVYYCARVAPMATNDWYFDLWGRGTLVTVSS
chain 2: B2 chain 2 with S9A, T23S, S26G, I44T, G52V, N54R, F65S, L91Q
- pseudovirus neutralization IC50 [1]: 0.31 µg/mL
- pseudovirus neutralization IC50 [2]: 0.197 µg/mL
- pseudovirus neutralization IC50 [3]: 0.353 µg/mL
- pseudovirus neutralization IC50 [4]: > 10 µg/mL
- pseudovirus neutralization IC50 [5]: > 10 µg/mL
- pseudovirus neutralization IC50 [6]: > 10 µg/mL
- pseudovirus neutralization IC50 [7]: 0.207 µg/mL

B7: BD56-1724 (protein)
chain 1: QVQLVQSGSELKKPGASVKVSCKASGYTFIRHAMNWVRQAPGQGLEWMGWINTNTGSPTYAQGFTGRFVFSLDTSVSTAYLQISSLKAEDTAVYYCARASYYGSGMEYYYAMDVWGQGTPVTVSS
chain 2: SYVLTQPPSVSVAPGQTAKLTCGGDSIGSKSVHWYQQKPAQAPVLVVFDDSDRPSGIPARFSGSNSGNTATLTISRVEAGDEADYYCQVWDTAGVFGGGTKLTVL
- pseudovirus neutralization IC50 [1]: > 10 µg/mL
- pseudovirus neutralization IC50 [2]: > 10 µg/mL
- pseudovirus neutralization IC50 [3]: > 10 µg/mL
- pseudovirus neutralization IC50 [4]: > 10 µg/mL
- pseudovirus neutralization IC50 [5]: > 10 µg/mL
- pseudovirus neutralization IC50 [6]: > 10 µg/mL
- pseudovirus neutralization IC50 [7]: > 10 µg/mL

B8: BD56-1729 (protein)
chain 1: QITLKESGPTLVKPTQTLTLTCTFSGFSLTTGGVGVGWIRQPPGKALEWLALIYWDDDKRYSPSLETRLTITKDTSKNQVVLTMTNMGPADTATYYCAHRRKLGYFISGHFGYWGRGTLVTVSS
chain 2: QSVLTQPPSTSGTPGQRVPISCSGSGSNIGTNTVNWYQQLPGTAPKLLIYSDNQRPSGVPDRFSGSKSGTSASLAINGLQSEDEAEYYCAAWDDSLSGPIFGGGTKLTVL
- pseudovirus neutralization IC50 [1]: 0.917 µg/mL
- pseudovirus neutralization IC50 [2]: 0.791 µg/mL
- pseudovirus neutralization IC50 [3]: 0.173 µg/mL
- pseudovirus neutralization IC50 [4]: > 10 µg/mL
- pseudovirus neutralization IC50 [5]: > 10 µg/mL
- pseudovirus neutralization IC50 [6]: > 10 µg/mL
- pseudovirus neutralization IC50 [7]: 0.0478 µg/mL

B9: BD56-1731 (protein)
chain 1: QVQLVESGGGVVQPGRSLRLACGVSGFSFSNYGMHWVRQAPGKGLDWVAVIGSDGTSKFYADSVKGRFTISRDNSKNTLYLQMNTLRVEDTAVYYCVKESDYDILTGGPFDYWGQGTLVTVSS
chain 2: DIQMTQSPSSLSASVGDRVTITCRATLGIRNSIAWYQQKPGKAPKLLLYAASRLESGVPSRFSGSGSGTDYTLTISSLQPEDFATYYCQQYHSSPPLTFGQGTKLEIK
- pseudovirus neutralization IC50 [1]: 3.7 µg/mL
- pseudovirus neutralization IC50 [2]: 3.51 µg/mL
- pseudovirus neutralization IC50 [3]: 3.6 µg/mL
- pseudovirus neutralization IC50 [4]: 5.34 µg/mL
- pseudovirus neutralization IC50 [5]: 8.69 µg/mL
- pseudovirus neutralization IC50 [6]: 8.71 µg/mL
- pseudovirus neutralization IC50 [7]: 0.782 µg/mL

B10: BD56-1732 (protein)
chain 1: QVQLVHSGAQVKKPGASVKVSCKASGYTFSSHGIIWVRQAPGHGLEWMGWISAYNGNTKYAQKFQDRLTMTTDTSTTTATMELRSLRSDDTAVYYCARVKGIWFGVDYWGQGTLVTVSS
chain 2: NFMLTQPHSVSESPGKTVTISCTGSSGSIATNYVHWYQQRPGSAPTTIISEDNRRPSGVPDRFSGSVDSSSNSASLTISGLKTEDEADYYCQSYDGTGVVFGGGTKLTVL
- pseudovirus neutralization IC50 [1]: 1.08 µg/mL
- pseudovirus neutralization IC50 [2]: 2.53 µg/mL
- pseudovirus neutralization IC50 [3]: 5.82 µg/mL
- pseudovirus neutralization IC50 [4]: 3.57 µg/mL
- pseudovirus neutralization IC50 [5]: 5.24 µg/mL
- pseudovirus neutralization IC50 [6]: 4.37 µg/mL
- pseudovirus neutralization IC50 [7]: 0.144 µg/mL

B11: BD56-1733 (protein)
chain 1: QVQLVQSGAEVKKPGSSVKVSCKASGGTFSSYTISWVRQAPGQGLEWMGNIMPILGIANYAQKFQGRVTIIADKSTSTAYMELSSLRSEDTAFYYCAGDLSSGWLFDNWGQGTLVTVSS
chain 2: B2 chain 2 with S26N, I44T, F65S, Y89F, L91Q, S92A, S98I, S100P
- pseudovirus neutralization IC50 [1]: > 10 µg/mL
- pseudovirus neutralization IC50 [2]: > 10 µg/mL
- pseudovirus neutralization IC50 [3]: > 10 µg/mL
- pseudovirus neutralization IC50 [4]: > 10 µg/mL
- pseudovirus neutralization IC50 [5]: > 10 µg/mL
- pseudovirus neutralization IC50 [6]: > 10 µg/mL
- pseudovirus neutralization IC50 [7]: 0.0443 µg/mL

B12: BD56-1736 (protein)
chain 1: QVQLQESGPGLVKPSQTLSLTCSVSGGSISSGTYYWSWIRQPAGKGLEWIGRIYTSGSANYTPSLKSRITISVDTSKNQFSLKLNSVTAADTAVYYCACGGDFRYFDLWGRGTLITVSS
chain 2: B10 chain 2 with G24R, T31G, H35Q, I48L, S50Y, R54L, V67I, D95N, T97G, G98N
- pseudovirus neutralization IC50 [1]: 0.0809 µg/mL
- pseudovirus neutralization IC50 [2]: 0.0553 µg/mL
- pseudovirus neutralization IC50 [3]: 0.062 µg/mL
- pseudovirus neutralization IC50 [4]: 4.96 µg/mL
- pseudovirus neutralization IC50 [5]: > 10 µg/mL
- pseudovirus neutralization IC50 [6]: > 10 µg/mL
- pseudovirus neutralization IC50 [7]: 0.0548 µg/mL
